B1: V2L2: anti-PcrV monoclonal antibody; VH SEQ ID NO:216, VL SEQ ID NO:217 (antibody, V domains shown)
VH: EMQLLESGGGLVQPGGSLRLSCAASGFTFSSYAMNWVRQAPGEGLEWVSAITISGITAYYTDSVKGRFTISRDNSKNTLYLQMNSLRAGDTAVYYCAKEEFLPGTHYYYGMDVWGQGTTVTVSS
VL: AIQMTQSPSSLSASVGDRVTITCRASQGIRNDLGWYQQKPGKAPKLVIYSASTLQSGVPSRFSGSGSGTDFTLSISSLQPDDFATYYCLQDYNYPWTFGQGTKVEIK
modifications: V2L2 VH; V2L2 VL
B2: 29D2: anti-PcrV mAb, epitope class 3 (antibody, V domains shown)
VH: EVQLLESGGGLVQPGGSLRLSCAASGFTFSSYAMSWVRQAPGKGLEWVSAISGSGYSTYYADSVKGRFTMSRDNSKNTLYLQMNSLRAEDTAVYYCAAEYSISSNYYYGMDVWGQGTTVTVSS
VL: DIQLTQSPSFLSASVGDRVTITCWASQGISSYLAWYQQKPGKAPKLLIYAASTLQSGVPSRFSGSGSGTEFTLTISSLQPEDFATYYCQQLNSSPLTFGGGTKVEIK
modifications: 29D2 VH; 29D2 VL

System: PcrV
Assay: PcrV epitope diversity (bead based flow cytometry, competition ELISA, western blotting)
Format: binding, Pseudomonas aeruginosa
Settings: FIG. 12A

Row | Molecule | epitope class (anti-PcrV)
1 | B1 | class 4
2 | B2 | class 3
